Measured data: PubChem BioAssay AID624099 (ICCB-Longwood, 2012)
Test: 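Host factors E2 relies on to silence an HPV18 LCR reporter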 (primary screen). Cell system: human C33A cervical carcinoma cells (HPV-negative) stably expressing BPV1 E2 and an HPV18 LCR luciferase reporter. Reagents: siRNA pool against human genes, 40 nM. Time to read-out: 72 h. Measurement: 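HPV18 LCR reporter light per well, converted to plate-wise z-scores that exclude control wells, and averaged over triplicate plates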. Direction: mean z-score and z-score: higher = stronger reporter signal, weaker E2 silencing. Rule for the call: 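Hit if mean z-score reaches 2 and two or more of three replicate z-scores also reach 2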.
Shown is a random part of about 21,000 reagents. 497 of all reagents (2.4%) count as active. 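Higher z means weaker E2 silencing; only reporter increases were scored, and knock-downs that hurt cell survival may mask genuine repressor factors.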 Entries without a mark were called inactive.

MAGEA2B (GeneID 266740) [SID134322957] scored mean z-score 0.32; z-score, replicate A = 0.46; z-score, replicate B = 0.07; z-score, replicate C = 0.44.
With knock-down of TRIM32 (GeneID 22954) [SID134312076] the results were mean z-score 0.64; z-score, replicate A = 0.67; z-score, replicate B = 0.65; z-score, replicate C = 0.6.
TXNL4A (GeneID 10907) [SID134313238] gave mean z-score 0.9; z-score, replicate A = 1.08; z-score, replicate B = 0.84; z-score, replicate C = 0.79.
NSFL1C (GeneID 55968) [SID134321172] scored mean z-score -1.76; z-score, replicate A = -1.94; z-score, replicate B = -1.78; z-score, replicate C = -1.56.
For TSPY2 (GeneID 64591) [SID134318349], the values are mean z-score -0.12; z-score, replicate A = 0.24; z-score, replicate B = -0.18; z-score, replicate C = -0.41.
PNLIPRP2 (GeneID 5408) [SID134313594] scored mean z-score -0.21; z-score, replicate A = 0.03; z-score, replicate B = -0.42; z-score, replicate C = -0.24.
Against RAD9A (GeneID 5883) [SID56478635], the values are mean z-score 0.2; z-score, replicate A = 0.27; z-score, replicate B = 0.36; z-score, replicate C = -0.03.

In a second layout: entries from further up
{"gene symbol":"TXNL4A (GeneID 10907)","PubChem SID":"SID134313238","mean z-score":0.9,"z-score, replicate A":1.08,"z-score, replicate B":0.84,"z-score, replicate C":0.79}
{"gene symbol":"NSFL1C (GeneID 55968)","PubChem SID":"SID134321172","mean z-score":-1.76,"z-score, replicate A":-1.94,"z-score, replicate B":-1.78,"z-score, replicate C":-1.56}

The results go on.
With knock-down of DDX19B (GeneID 11269) [SID134317695], the screen gave mean z-score -0.9; z-score, replicate A = -0.86; z-score, replicate B = -0.9; z-score, replicate C = -0.93.
ZIC1 (GeneID 7545) [SID134316116] scored mean z-score 0.79; z-score, replicate A = 0.88; z-score, replicate B = 0.9; z-score, replicate C = 0.59.
For MYL12A (GeneID 10627) [SID134325072], the values are mean z-score 0.49; z-score, replicate A = 0.74; z-score, replicate B = 0.38; z-score, replicate C = 0.36.
SSR4 (GeneID 6748) [SID134316547] gave mean z-score -1.86; z-score, replicate A = -1.74; z-score, replicate B = -1.88; z-score, replicate C = -1.98.
ARHGEF28 (GeneID 64283) [SID134326086] showed mean z-score -0.09; z-score, replicate A = -0.03; z-score, replicate B = -0.24; z-score, replicate C = 0.
